How the values were obtained:
[1] = tested on: SARS-CoV-2 (hCoV-19/USA-WA1/2020) in Calu-3 cells; assay type: cell-based
[2] = tested on: SARS-CoV-2 (hCoV-19/USA-WA1/2020) in Vero CCL-81 cells; assay type: cell-based
[3] = tested on: SARS-CoV-2 (hCoV-19/USA-WA1/2020) in Caco-2 cells
[4] = tested on: COVID-19 / SARS-CoV-2 infection; settings: topical nasal spray, 300 hospital personnel; cited from earlier work
[5] = Peak plasma concentration; settings: Table 1; Cmax × Fun

| Substance | EC50 [1] | EC50 [2] | EC50 ([3]; read-out: Caco-2 SARS-CoV-2 EC50) | relative risk reduction [4] | Caco-2 Unbound Cmax/EC50 ([3]; Caco-2) | Cmax (μM) {unbound} [5] |
| --- | --- | --- | --- | --- | --- | --- |
| Iota-Carrageenan | 500 nM | 700 nM | 59200 nM | 79.8% |  |  |
| VV116 |  |  |  |  | 105 | 8.37 µM |

Source: article PMC11053489 (Viruses, 2024)
